Results of unrelated studies side by side (data: NIAID ChemDB).

Shared fields: whole-cell or culture tests; species: HIV-1

ECn is the concentration giving n% inhibition of infection, replication or growth.

structure | strain or isolate | mutations | cells | measure | setting | method | value
Nc1nc(N)n(CCOCP(=O)(O)O)c(=O)c1Cc1ccccc1 | IIIB | - | CEM | EC50 | - | syncytia | ≥300 µM
N#CSc1ccc2nc(NC(=O)CCl)sc2c1 | IIIB | - | MT-4 | EC50 | - | MTT | >8 µM
Cc1ccnc2c1NC(=O)c1cccnc1N2C1CC1 | IIIB | - | MT-4 | EC50 | - | MTT | 0.15 µM
Cc1ccc2c(c1)CC[C@H]1N2[C@H](C(=O)c2ccccc2)[C@@H](c2ccc(Cl)cc2)[C@]1(C#N)C(N)=O | - | - | 293T | EC50 | - | luciferase | 13.5 µM
Cc1ccc(C)n1-c1ccc(C(=O)O)c(O)c1 | 93TH051 X4R5 CLADE E | - | PBMC/5.25M7 | EC50 | - | luciferase / cell fusion | 7.46 µM
COc1ccccc1CCNC(=O)OC[C@@H]1C=C[C@H](n2cc(C)c(=O)[nH]c2=O)O1 | IIIB | - | PBMC | EC50 | - | p24 | 11.2 µM
O=C(/C=C/c1cc(O)c(O)c(O)c1)NCC(NC(=O)/C=C/c1cc(O)c(O)c(O)c1)C(=O)O | LAI | - | MT-2 | EC50 | - | cytopathic effect / neutral red | 1.6 µM
CCc1ccccc1ONc1cc(S(=O)(=O)N(CC(C)C)C[C@@H](O)[C@H](Cc2ccccc2)NC(=O)O[C@H]2CO[C@H]3OCC[C@H]32)ccc1N | IIIB WT | - | MT-4 | EC50 | - | GFP | 0.00457 µM
O=C(NNCCO)c1[nH]c2ccc(Cl)cc2c1S(=O)(=O)c1ccccc1 | IIIB | - | MT-4 | EC50 | - | cytopathic effect / MTT | 0.01 µM
Cc1occc1C(=O)Nc1ccc(Cl)c(/C=N/N2CCCC2)c1 | R82913-resistant (RT K103N) | RT-K103N | CEM | EC50 | - | syncytia | <2 µg/mL
COC(=O)C(CCNC(=O)c1ccc(O)c(O)c1)NC(=O)c1ccc(O)c(O)c1 | LAI | - | MT-2 | EC50 | - | cytopathic effect / neutral red | >62.5 µM
Cc1ccc(S(=O)(=O)c2c(C(=O)NCCO)[nH]c3ccc(Cl)cc23)c(C)c1 | IIIB | - | C8166 | EC50 | - | cytopathic effect / MTT | 0.02 µM
Cc1ccc(/C=C2/SC(=O)N(CC(=O)Nc3nc4ccc(SC#N)cc4s3)C2=O)cc1 | IIIB | - | MT-4 | EC50 | - | MTT | >50 µM
CCCCCCCCCC(=O)Oc1ccc(COP(=O)(OCCC#N)OP(=O)(O)OC[C@@H]2C=C[C@H](n3cc(C)c(=O)[nH]c3=O)O2)cc1 | IIIB | - | CEM | EC50 | - | syncytia / microscopy | 0.99 µM
Nc1nc(N)c(Cc2ccccc2)c(OCCOCP(=O)(O)O)n1 | IIIB | - | CEM | EC50 | - | syncytia | ≥300 µM
CCCCCCCCCCCCCC(=O)Oc1ccc(COP(=O)(OCc2ccc(OC(=O)CCCCCCCCCCCCC)cc2)OP(=O)(O)OC[C@@H]2C=C[C@H](n3cc(C)c(=O)[nH]c3=O)O2)cc1 | IIIB | - | CEM | EC50 | - | syncytia / microscopy | 1.8 µM
Cc1ccc(CCNC(=O)OC[C@@H]2C=C[C@H](n3cc(C)c(=O)[nH]c3=O)O2)cc1 | IIIB | - | PBMC | EC50 | - | p24 | >100 µM
O=c1nccc(NS(=O)(=O)c2ccc(F)cc2F)[nH]1 | NL4-3 | - | H9 | EC50 | pseudotyped | p24 / ELISA | >50 µM
O=C(c1ccc(Nc2ccnc3cc(Cl)ccc23)cc1)N1CCOCC1 | - | - | MT-2 | EC50 | - | p24 | 2.5 µM
Nc1nc(N)c(-c2ccccc2)c(OCCOCP(=O)(O)O)n1 | IIIB | - | CEM | EC50 | - | syncytia | ≥300 µM
COc1cccc(C(=O)[C@@H]2[C@@H](c3ccccc3F)[C@](C#N)(C(N)=O)[C@H]3CCc4cc(C)ccc4N23)c1 | - | - | 293T | EC50 | - | luciferase | 21.5 µM
CC(C)CN(C[C@@H](O)[C@H](Cc1ccccc1)NC(=O)O[C@H]1CO[C@H]2OCC[C@H]21)S(=O)(=O)c1ccc(N)c(NCCCO)c1 | IIIB WT | - | MT-4 | EC50 | - | GFP | 0.372 µM
O=C(/C=C/c1cc(O)c(O)c(O)c1)NCCCC(NC(=O)/C=C/c1cc(O)c(O)c(O)c1)C(=O)O | LAI | - | MT-2 | EC50 | - | cytopathic effect / neutral red | 1.1 µM
O=P(O)(O)OP(=O)(O)OP(=O)(O)OP(=O)(O)OP(=O)(O)OP(=O)(O)OP(=O)(O)OP(=O)(O)OP(=O)(O)OP(=O)(O)OP(=O)(O)OP(=O)(O)OP(=O)(O)OP(=O)(O)OP(=O)(O)O | IIIB | - | H9 | EC50 | - | RT activity | >100 µg/mL
COc1cc(/C=C2/SC(=O)N(CC(=O)Nc3nc4ccc(SC#N)cc4s3)C2=O)ccc1O | IIIB | - | MT-4 | EC50 | - | MTT | >100 µM
O=S(=O)(Nc1cccc2cccnc12)c1ccc(F)cc1 | NL4-3 | - | H9 | EC50 | pseudotyped | p24 / ELISA | 0.23 µM
Cc1cc(C)cc(Sc2c(C(=O)NNCCO)[nH]c3ccc(Cl)cc23)c1 | BAL R5 | - | Macrophage + Macrophages | EC50 | - | p24 | 0.1 µM
CC(C)CN(C[C@@H](O)[C@H](Cc1ccccc1)NC(=O)O[C@H]1CO[C@H]2OCC[C@H]21)S(=O)(=O)c1ccc(N)c(NCCN2CCCCC2)c1 | IIIB WT | - | MT-4 | EC50 | - | GFP | 0.0195 µM
CCCCOP(=O)(OCCCC)OC[C@@H]1CC[C@H](n2cnc3c(N)nccc32)O1 | IIIB | - | MT-4 | EC90 | - | syncytia | 12 µM
COc1cccc(C(=O)C2C(c3ccc(Cl)cc3)C(C#N)(C(N)=O)C3CCc4cc(C)ccc4N23)c1 | - | - | 293T | EC50 | - | luciferase | 12 µM
COC(=O)C(CCNC(=O)/C=C/c1cc(OC)c(OC)c(OC)c1)NC(=O)/C=C/c1cc(OC)c(OC)c(OC)c1 | LAI | - | MT-2 | EC50 | - | cytopathic effect / neutral red | >62.5 µM
CCCCCCCC/C=C\CCCCCCCC(=O)Oc1ccc(COP(=O)(OCc2ccc(OC(=O)CCCCCCC/C=C\CCCCCCCC)cc2)OP(=O)(O)OC[C@@H]2C=C[C@H](n3cc(C)c(=O)[nH]c3=O)O2)cc1 | IIIB | - | CEM | EC50 | - | syncytia / microscopy | 1.1 µM
C=C1C(=O)[C@@]23CC[C@H]4[C@@](C)(CCC[C@@]4(C)C(=O)O)[C@@H]2CC[C@@H]1C3 | RF | - | CEM + CEM-SS | EC50 | - | cytopathic effect / XTT | 0.5 µg/mL
Cc1c(N)nc(N)nc1OCCOCP(=O)(O)O | IIIB | - | CEM | EC50 | - | syncytia | 0.33 µM
O=C1Nc2ccc(Cl)cc2[C@@](C#CC2CC2)(C(F)(F)F)O1 | p8.9 | N348I | HEK293T | EC50 | - | luciferase | 7.69 nM
Cc1cc(C#N)cc(C)c1Oc1nc(Nc2ccc(C#N)cc2)nc(N)c1Br | IIIB | - | MT-4 | EC50 | - | MTT | 0.0032 µM
Cc1ccc(S(=O)(=O)Nc2cccc3cccnc23)cc1 | NL4-3 | - | H9 | EC50 | pseudotyped | p24 / ELISA | >50 µM
Cc1ccc(S(=O)(=O)c2c(C(=O)NNCCO)[nH]c3ccc(Cl)cc23)cc1 | - | RT-K103N Y181C | MT-4 | EC50 | - | cytopathic effect / MTT | 20 µM
CC(C)=CCOc1cc(NC(=S)c2ccoc2C)ccc1Cl | NL4-3 | RT-K103N | CEM + CEM-SS | EC50 | - | p24 | 0.1 µM
COc1c(N2CCN(CN3C(=O)C(=Nc4ccc(S(=O)(=O)Nc5nc(C)cc(C)n5)cc4)c4ccccc43)C(C)C2)c(F)cc2c(=O)c(C(=O)O)cn(C3CC3)c12 | IIIB | - | CEM | EC50 | - | cytopathic effect / XTT | >133 µM
O=C(NCCO)c1[nH]c2ccc(Cl)cc2c1S(=O)(=O)c1ccccc1 | - | RT-Y181C | MT-4 | EC50 | - | cytopathic effect / MTT | 1 µM
Cc1cn([C@H]2C[C@H](N=[N+]=[N-])[C@@H](COP(=O)(O)C(=O)NCC[N+](C)(C)C)O2)c(=O)[nH]c1=O | GKV-4046 | - | MT-4 | EC50 | - | p24 | 4.35 µM
Nc1ccn([C@H]2CC[C@@H](CO)O2)c(=O)n1 | - | Y188H | MT-4 | EC50 | - | MTT | 0.01 µM
COc1ccc(N2CCN(CN3C(=O)C(=Nc4ccc(S(=O)(=O)Nc5nc(C)cc(C)n5)cc4)c4ccccc43)CC2)cc1 | IIIB | - | MT-4 | EC50 | - | cytopathic effect / MTT | >44.4 µM
Nc1ncnc2c1ncn2[C@@H]1O[C@H](COP(=O)(O)O[C@@H]2[C@H](O)[C@@H](COP(=O)(O)O[C@@H]3[C@H](O)[C@@H](CO)O[C@H]3n3cnc4c(N)ncnc43)O[C@H]2n2cnc3c(N)ncnc32)[C@@H](O)[C@H]1O | IIIB | - | PBL | EC50 | - | syncytia | >300 µM
CCn1cc(C(=O)O)c(=O)c2cc(F)c(N3CCN(CN4C(=O)C(=Nc5ccc(S(=O)(=O)Nc6nc(C)cc(C)n6)cc5)c5ccccc54)C(C)C3)c(F)c21 | IIIB | - | MT-4 | EC50 | - | cytopathic effect / MTT | 15.9 µM
CC(C)CN(C[C@@H](O)[C@H](Cc1ccccc1)NC(=O)O[C@H]1CO[C@H]2OCC[C@H]21)S(=O)(=O)c1ccc(N)c(NCCCN2CCCC2)c1 | IIIB WT | - | MT-4 | EC50 | - | GFP | 0.269 µM
O=S(=O)(Nc1cccc2cccnc12)c1ccc(C(F)(F)F)cc1 | NL4-3 | - | H9 | EC50 | pseudotyped | p24 / ELISA | 0.23 µM
Cc1cn([C@H]2C=C[C@@H](COC(=O)NCCc3ccccc3F)O2)c(=O)[nH]c1=O | IIIB | - | PBMC | EC50 | - | p24 | 25.4 µM
COc1cnc(-n2cnc(C)n2)c2[nH]cc(C(=O)C(=O)N3CCN(C(=O)c4ccccc4)CC3)c12 | SF162.LS | - | PM1 | EC50 | - | p24 / ELISA | 0.0005 µM
COc1cccc(C(=O)[C@@H]2[C@@H](c3ccc(C#N)cc3)[C@](C#N)(C(N)=O)[C@H]3CCc4cc(C)ccc4N23)c1 | - | - | 293T | EC50 | - | luciferase | >60 µM
O=C1c2c(O)c3n(c2CCN1Cc1ccc(F)cc1)CCN(Cc1ccc(F)cc1)C3=O | - | - | MT-4 | EC95 | - | p24 | ≤10 µM
O=S(=O)(Nc1ncnc2nc[nH]c12)c1ccc(F)cc1F | NL4-3 | - | H9 | EC50 | pseudotyped | p24 / ELISA | >50 µM
CCn1cc(C(=O)O)c(=O)c2cc(F)c(N3CCN(CN4C(=O)C(=Nc5ccc(S(=O)(=O)Nc6nc(C)cc(C)n6)cc5)c5cc(F)ccc54)C(C)C3)c(F)c21 | IIIB | - | CEM | EC50 | - | cytopathic effect / XTT | >115 µM
Cc1cn([C@H]2C[C@H](N=[N+]=[N-])[C@@H](COP(=O)(O)C(Cl)(Cl)Cl)O2)c(=O)[nH]c1=O | GKV-4046 | - | MT-4 | EC50 | - | p24 | 0.45 µM
CCCOP(=O)(OCCC)OC[C@@H]1CC[C@H](n2cnc3c(N)nccc32)O1 | IIIB | - | MT-4 | EC90 | - | syncytia | 20 µM
CC(C)=CCN1Cc2cc(Cl)cc3[nH]c(=O)n(c23)C[C@@H]1C | IIIB | RT-L100I | MT-4 | EC50 | - | cytopathic effect / XTT | >22 µM
Cc1ccccc1S(=O)(=O)c1c(C(=O)NCCO)[nH]c2ccc(Cl)cc12 | IIIB | - | MT-4 | EC50 | - | cytopathic effect / MTT | 0.031 µM
N#CCc1c(N)nc(N)nc1OCCOCP(=O)(O)O | IIIB | - | CEM | EC50 | - | syncytia | ≥300 µM
Cc1cn([C@H]2C[C@H](N=[N+]=[N-])[C@@H](COP(=O)(O)C(N)=O)O2)c(=O)[nH]c1=O | GKV-4046 | - | MT-4 | EC50 | - | p24 | 0.8 µM
COC(=O)C(CCNC(=O)/C=C/c1ccc(O)c(O)c1)NC(=O)/C=C/c1ccc(O)c(O)c1 | LAI | - | MT-2 | EC50 | - | cytopathic effect / neutral red | >62.5 µM
NC(=O)c1[nH]c2ccc(Cl)cc2c1S(=O)(=O)c1ccccc1 | IIIB | - | MT-4 | EC50 | - | cytopathic effect / MTT | 0.002 µM
O=C(/C=C/c1cc(O)c(O)c(O)c1)NCCCC[C@H](NC(=O)/C=C/c1cc(O)c(O)c(O)c1)C(=O)O | LAI | - | MT-2 | EC50 | - | cytopathic effect / neutral red | 1.7 µM
Cc1cc(C)cc(S(=O)(=O)c2c(C(=O)NCCO)[nH]c3ccc(Cl)cc23)c1 | IIIB | - | C8166 | EC50 | - | cytopathic effect / MTT | 0.002 µM
N.O=S(=O)(NCc1ccccc1)c1ccc(F)cc1F | NL4-3 | - | H9 | EC50 | pseudotyped | p24 / ELISA | >20 µM
N#CSc1ccc2nc(NC(=O)CN3C(=O)S/C(=C/c4cccc(Br)c4)C3=O)sc2c1 | IIIB | - | MT-4 | EC50 | - | MTT | >73 µM
O=[N+]([O-])c1cccc(S(=O)(=O)Nc2cccc3cccnc23)c1 | NL4-3 | - | H9 | EC50 | pseudotyped | p24 / ELISA | >30 µM
COC(=O)C(CCNC(=O)/C=C/c1cc(O)c(O)c(O)c1)NC(=O)/C=C/c1cc(O)c(O)c(O)c1 | LAI | - | MT-2 | EC50 | - | cytopathic effect / neutral red | 19.4 µM

7 of the rows above, restated:

Nc1ccn([C@H]2CC[C@@H](CO)O2)c(=O)n1 ; mutations: Y188H ; cells: MT-4 ; measure: EC50 ; method: MTT ; value: 0.01 µM
Cc1ccccc1S(=O)(=O)c1c(C(=O)NCCO)[nH]c2ccc(Cl)cc12 ; strain or isolate: IIIB ; cells: MT-4 ; measure: EC50 ; method: cytopathic effect / MTT ; value: 0.031 µM
Cc1cc(C)cc(Sc2c(C(=O)NNCCO)[nH]c3ccc(Cl)cc23)c1 ; strain or isolate: BAL R5 ; cells: Macrophage + Macrophages ; measure: EC50 ; method: p24 ; value: 0.1 µM
Cc1c(N)nc(N)nc1OCCOCP(=O)(O)O ; strain or isolate: IIIB ; cells: CEM ; measure: EC50 ; method: syncytia ; value: 0.33 µM
CC(C)=CCN1Cc2cc(Cl)cc3[nH]c(=O)n(c23)C[C@@H]1C ; strain or isolate: IIIB ; mutations: RT-L100I ; cells: MT-4 ; measure: EC50 ; method: cytopathic effect / XTT ; value: >22 µM
COc1ccc(N2CCN(CN3C(=O)C(=Nc4ccc(S(=O)(=O)Nc5nc(C)cc(C)n5)cc4)c4ccccc43)CC2)cc1 ; strain or isolate: IIIB ; cells: MT-4 ; measure: EC50 ; method: cytopathic effect / MTT ; value: >44.4 µM
Cc1ccc(C)n1-c1ccc(C(=O)O)c(O)c1 ; strain or isolate: 93TH051 X4R5 CLADE E ; cells: PBMC/5.25M7 ; measure: EC50 ; method: luciferase / cell fusion ; value: 7.46 µM

Conditions beyond the fields shown may differ between rows. Blank or dashed fields: not listed here.